Laboratory results reported in patent EP1366052B1 (priority 2001, dated 2002).

System: weanling pigs
Conditions: Day 1 PM and following meal times

In the case of `CC1=C[C@H]2O[C@@H]3[C@H](O)C[C@](C)([C@@]2(CO)[C@H](O)[C@@H]1O)[C@]31CO1`, the “persistence of the effect on food consumption” value is reported as “wore off by the next meal”.
